Assay results as given in PMC10597343.
Construct, isoform or probe ends are uncertain for at least one entry. Negatives hold for the conditions tested.

Amino acid sequences for entries named in this document (tags omitted). A change or cut given only in a name is not applied to a line headed by its entry.
UniProt P0ACS9: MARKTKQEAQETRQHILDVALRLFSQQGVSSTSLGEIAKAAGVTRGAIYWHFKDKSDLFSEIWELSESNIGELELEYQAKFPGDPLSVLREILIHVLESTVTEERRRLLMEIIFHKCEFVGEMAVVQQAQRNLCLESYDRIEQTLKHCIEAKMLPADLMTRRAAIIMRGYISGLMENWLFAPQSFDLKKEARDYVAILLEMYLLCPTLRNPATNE

Target: AcrR (Escherichia coli) (UniProt P0ACS9)
Assay: EMSA
Conditions: AcrR up to 1 uM; EMSA with LightShift Chemiluminescent EMSA Kit, AcrR 0, 0.4 and 1 uM; pH and temperature not stated; recombinant protein; probe letters rebuilt from the primers and the genome

CGCGGATTACGGTGCTACCTCTGACGTTAGGCGAAAATATCAACGCCGCTGTTGCCTGTTACACGCCCTTGTAAAGAGACGGGAACCGGAAGCGTATCGTCGTCTTCCCCCGCCAGAGGTTCATGGTTTGCTGTGCGTTGGCTTTGCTGTTGCTGGGAAGCGGCCTGCTGCTGACCACTAAAGCTTTCGCCACTGATGTTGCTTTGCCCTAACTGAATGCCACTTTCGGCCAGCTGCGTGCGCAGTACCGGCAGCGCTGCTTCCAGGGCGGCGCGTACATGCTGATGCGGTGAAACCATCTGGATTTGCGCCTGGTTATCATCCACTTTGAGGGAGATTTGCAC (double strand) [fliLMNOPQRp]
binding result: no binding

CGCTGAAGCGGTAAGGAATATTCATTTGCGTCAGTTGGCTGACAATTGCGCCACCATCCTGATCGGAAAGATTGCTGAATAATGTGCGGTAGTCGGGGGCTTTCGCCCACAGGATCAGTGCGACCATGACCGCCACTGCCGCGGAACCGGCAACAATCAATGGAATTTTCGGATTCGCACGCAGGCGATTAAGCCACTCAAGAGATTTTGTCTGGGCTGCAGTCGCATTCATCGCGCACCTCGTGGCTGATTATGGACGGCGTTATTGGCAAAGTGGAACAAGACTCACTCCCGGGTCAGCAAACTCGAAAAATTGACGCTCCCATTATTTGTGCTTTCGTTTTTTTCTATCCGCCAATAAACCCGT (double strand) [fliEp]
binding result: no binding
